Data reported in patent US9730928B2, “Trizol-1-OL analogs anti-retroviral latency drugs” (priority 2013, dated 2017).

Test system: latent HIV-1
Assay: Reactivation of latent HIV-1 in absence or presence of γc-cytokines
Format: cell-based
Conditions: cytokine by itself, compared with absence of cytokines
Protocol: Latently infected cells were generated using healthy, uninfected DONOR 78 cells that were infected with DHIV virus. Reactivation was monitored by analysis of p24Gag by Flow Cytometry 72 hours after stimulation. HOBt was tested in the presence or absence of IL-2, a γc-cytokine required for survival of the cells in vivo.

Q: Which “viral reactivation by cytokine alone” value does the source give for “IL-2: γc-cytokine required for survival of the cells” here?
A: Its value is “trend towards increasing viral reactivation”.
